Laboratory results published in article PMC9855884, “Glycosylated Lipopeptides—Synthesis and Evaluation of Antimicrobial Activity and Cytotoxicity” (Biomolecules, 2023).
Where a SMILES comes first, the peptide text is derived from it. The star is where a group is joined. βGlcNAc = CC(=O)N[C@@H]1[C@@H](O)[C@H](O)[C@@H](CO)O[C@H]1*; Stearoyl = CCCCCCCCCCCCCCCCCC(=O)*; Palmitoyl = CCCCCCCCCCCCCCCC(=O)*; Myristoyl = CCCCCCCCCCCCCC(=O)*

Test system: human red blood cells (RBCs)
Test: Hemolysis assay
Type: cell-based
Procedure: The hemolysis assay was conducted using a procedure described previously. For this purpose, fresh human red blood cells (RBCs) with EDTA anticoagulant were washed three times with phosphate-buffer saline (PBS) using centrifugation at 800× g for 10 min and resuspended in PBS. Then, the stock solution of RBCs was added to serial dilution of peptides on 96-well polystyrene plates to reach a final volume of 100 µL with 4% concentration of erythrocytes (v/v) over the concentration range of 1–512 µg/mL of the tested compounds. The control wells for the 0% and 100% hemolysis consisted of RBCs suspended in PBS and 1% of Triton X–100, respectively. Subsequently, the plates were incubated for 60 min at 37 °C and then centrifuged at 800× g for 10 min at 4 °C (Sorvall ST 16R Centrifuge, Thermo Scientific, Osterode am Harz, Germany). After centrifugation, the supernatant was carefully […] to new microtiter plates and the release of hemoglobin was monitored through absorbance measurements at 540 nm (Multiskan™ GO Microplate Spectrophotometer, Thermo Scientific). All experiments were conducted in triplicate.
The lipopeptides were tested against human erythrocytes in order to evaluate their hemolytic activity. Moreover, selectivity indexes (SI) were calculated by dividing the HC50 by MIC. […] In some cases, glycosylation led to suppressed toxicity, e.g., a comparison of C14 peptides analogs: 1–3 and 10–12. On the other hand, an increase in toxicity of C18 analogs (7–9 vs. 16–18) was found for glycosylated USCLs. For this reason, SI was calculated to provide a correlation between antimicrobial activity and toxicity. […] Among gUSCLs: 10 and 11 with C14 fatty acid and 16–18 should be highlighted owing to their high selectivity against E. fecium and C. glabrata.

CCCCCCCCCCCCCCCC(=O)N[C@@H](CO)C(=O)N[C@@H](CCCNC(=N)N)C(=O)N[C@@H](CCCNC(=N)N)C(N)=O [Peptide 4, C16-SRR-NH2] (Palmitoyl-Ser-Arg-Arg-NH2)
Selectivity Index (SI), HC50/MIC (A. baumannii): 2.36
Selectivity Index (SI), HC50/MIC (C. glabrata): 18.87
Selectivity Index (SI), HC50/MIC (E. faecium): 9.43
Selectivity Index (SI), HC50/MIC (K. aerogenes): 4.72
Selectivity Index (SI), HC50/MIC (K. pneumoniae): 0.15
Selectivity Index (SI), HC50/MIC (P. aeruginosa): 4.72
Selectivity Index (SI), HC50/MIC (S. aureus): 9.43

CCCCCCCCCCCCCCCC(=O)N[C@@H](CCCNC(=N)N)C(=O)N[C@@H](CO[C@@H]1O[C@H](CO)[C@@H](O)[C@H](O)[C@H]1NC(C)=O)C(=O)N[C@@H](CCCNC(=N)N)C(N)=O [Peptide 14, C16-RS(GlcNAc)R-NH2] (Palmitoyl-Arg-Ser(βGlcNAc)-Arg-NH2)
Selectivity Index (SI), HC50/MIC (A. baumannii): 2.29
Selectivity Index (SI), HC50/MIC (C. glabrata): 4.58
Selectivity Index (SI), HC50/MIC (E. faecium): 4.58
Selectivity Index (SI), HC50/MIC (K. aerogenes): 1.15
Selectivity Index (SI), HC50/MIC (K. pneumoniae): 0.57
Selectivity Index (SI), HC50/MIC (P. aeruginosa): 2.29
Selectivity Index (SI), HC50/MIC (S. aureus): 4.58

CCCCCCCCCCCCCCCCCC(=O)N[C@@H](CO)C(=O)N[C@@H](CCCNC(=N)N)C(=O)N[C@@H](CCCNC(=N)N)C(N)=O [Peptide 7, C18-SRR-NH2] (Stearoyl-Ser-Arg-Arg-NH2)
Selectivity Index (SI), HC50/MIC (A. baumannii): 2.57
Selectivity Index (SI), HC50/MIC (C. glabrata): 20.58
Selectivity Index (SI), HC50/MIC (E. faecium): 10.29
Selectivity Index (SI), HC50/MIC (K. aerogenes): 5.14
Selectivity Index (SI), HC50/MIC (K. pneumoniae): 5.14
Selectivity Index (SI), HC50/MIC (P. aeruginosa): 1.29
Selectivity Index (SI), HC50/MIC (S. aureus): 5.14

CCCCCCCCCCCCCCCCCC(=O)N[C@@H](CCCNC(=N)N)C(=O)N[C@@H](CO)C(=O)N[C@@H](CCCNC(=N)N)C(N)=O [Peptide 8, C18-RSR-NH2] (Stearoyl-Arg-Ser-Arg-NH2)
Selectivity Index (SI), HC50/MIC (A. baumannii): 5.24
Selectivity Index (SI), HC50/MIC (C. glabrata): 83.78
Selectivity Index (SI), HC50/MIC (E. faecium): 41.89
Selectivity Index (SI), HC50/MIC (K. aerogenes): 10.47
Selectivity Index (SI), HC50/MIC (K. pneumoniae): 10.47
Selectivity Index (SI), HC50/MIC (P. aeruginosa): 5.24
Selectivity Index (SI), HC50/MIC (S. aureus): 20.95

CCCCCCCCCCCCCCCC(=O)N[C@@H](CO[C@@H]1O[C@H](CO)[C@@H](O)[C@H](O)[C@H]1NC(C)=O)C(=O)N[C@@H](CCCNC(=N)N)C(=O)N[C@@H](CCCNC(=N)N)C(N)=O [Peptide 13, C16-S(GlcNAc)RR-NH2] (Palmitoyl-Ser(βGlcNAc)-Arg-Arg-NH2)
Selectivity Index (SI), HC50/MIC (A. baumannii): 2.98
Selectivity Index (SI), HC50/MIC (C. glabrata): 2.98
Selectivity Index (SI), HC50/MIC (E. faecium): 5.96
Selectivity Index (SI), HC50/MIC (K. aerogenes): 0.19
Selectivity Index (SI), HC50/MIC (K. pneumoniae): 0.37
Selectivity Index (SI), HC50/MIC (P. aeruginosa): 2.98
Selectivity Index (SI), HC50/MIC (S. aureus): 5.96

CCCCCCCCCCCCCCCC(=O)N[C@@H](CCCNC(=N)N)C(=O)N[C@@H](CCCNC(=N)N)C(=O)N[C@@H](CO[C@@H]1O[C@H](CO)[C@@H](O)[C@H](O)[C@H]1NC(C)=O)C(N)=O [Peptide 15, C16-RRS(GlcNAc)-NH2] (Palmitoyl-Arg-Arg-Ser(βGlcNAc)-NH2)
Selectivity Index (SI), HC50/MIC (A. baumannii): 3.48
Selectivity Index (SI), HC50/MIC (C. glabrata): 6.97
Selectivity Index (SI), HC50/MIC (E. faecium): 13.93
Selectivity Index (SI), HC50/MIC (K. aerogenes): 0.44
Selectivity Index (SI), HC50/MIC (K. pneumoniae): 0.44
Selectivity Index (SI), HC50/MIC (P. aeruginosa): 1.74
Selectivity Index (SI), HC50/MIC (S. aureus): 6.97

CCCCCCCCCCCCCC(=O)N[C@@H](CCCNC(=N)N)C(=O)N[C@@H](CO[C@@H]1O[C@H](CO)[C@@H](O)[C@H](O)[C@H]1NC(C)=O)C(=O)N[C@@H](CCCNC(=N)N)C(N)=O [Peptide 11, C14-RS(GlcNAc)R-NH2] (Myristoyl-Arg-Ser(βGlcNAc)-Arg-NH2)
Selectivity Index (SI), HC50/MIC (A. baumannii): 5.69
Selectivity Index (SI), HC50/MIC (C. glabrata): 2.85
Selectivity Index (SI), HC50/MIC (E. faecium): 11.38
Selectivity Index (SI), HC50/MIC (P. aeruginosa): 2.85
Selectivity Index (SI), HC50/MIC (S. aureus): 5.69

CCCCCCCCCCCCCC(=O)N[C@@H](CCCNC(=N)N)C(=O)N[C@@H](CCCNC(=N)N)C(=O)N[C@@H](CO[C@@H]1O[C@H](CO)[C@@H](O)[C@H](O)[C@H]1NC(C)=O)C(N)=O [Peptide 12, C14-RRS(GlcNAc)-NH2] (Myristoyl-Arg-Arg-Ser(βGlcNAc)-NH2)
Selectivity Index (SI), HC50/MIC (A. baumannii): 5.40
Selectivity Index (SI), HC50/MIC (C. glabrata): 2.70
Selectivity Index (SI), HC50/MIC (E. faecium): 21.61
Selectivity Index (SI), HC50/MIC (P. aeruginosa): 1.35
Selectivity Index (SI), HC50/MIC (S. aureus): 10.80

CCCCCCCCCCCCCCCCCC(=O)N[C@@H](CCCNC(=N)N)C(=O)N[C@@H](CO[C@@H]1O[C@H](CO)[C@@H](O)[C@H](O)[C@H]1NC(C)=O)C(=O)N[C@@H](CCCNC(=N)N)C(N)=O [Peptide 17, C18-RS(GlcNAc)R-NH2] (Stearoyl-Arg-Ser(βGlcNAc)-Arg-NH2)
Selectivity Index (SI), HC50/MIC (A. baumannii): 2.83
Selectivity Index (SI), HC50/MIC (C. glabrata): 11.31
Selectivity Index (SI), HC50/MIC (E. faecium): 5.66
Selectivity Index (SI), HC50/MIC (K. aerogenes): 1.41
Selectivity Index (SI), HC50/MIC (K. pneumoniae): 2.83
Selectivity Index (SI), HC50/MIC (P. aeruginosa): 1.41
Selectivity Index (SI), HC50/MIC (S. aureus): 2.83

CCCCCCCCCCCCCCCC(=O)N[C@@H](CCCNC(=N)N)C(=O)N[C@@H](CO)C(=O)N[C@@H](CCCNC(=N)N)C(N)=O [Peptide 5, C16-RSR-NH2] (Palmitoyl-Arg-Ser-Arg-NH2)
Selectivity Index (SI), HC50/MIC (A. baumannii): 2.57
Selectivity Index (SI), HC50/MIC (C. glabrata): 10.28
Selectivity Index (SI), HC50/MIC (E. faecium): 10.28
Selectivity Index (SI), HC50/MIC (K. aerogenes): 2.57
Selectivity Index (SI), HC50/MIC (K. pneumoniae): 1.28
Selectivity Index (SI), HC50/MIC (P. aeruginosa): 1.28
Selectivity Index (SI), HC50/MIC (S. aureus): 10.28

CCCCCCCCCCCCCCCCCC(=O)N[C@@H](CCCNC(=N)N)C(=O)N[C@@H](CCCNC(=N)N)C(=O)N[C@@H](CO[C@@H]1O[C@H](CO)[C@@H](O)[C@H](O)[C@H]1NC(C)=O)C(N)=O [Peptide 18, C18-RRS(GlcNAc)-NH2] (Stearoyl-Arg-Arg-Ser(βGlcNAc)-NH2)
Selectivity Index (SI), HC50/MIC (A. baumannii): 1.50
Selectivity Index (SI), HC50/MIC (C. glabrata): 12.01
Selectivity Index (SI), HC50/MIC (E. faecium): 6.01
Selectivity Index (SI), HC50/MIC (K. aerogenes): 1.50
Selectivity Index (SI), HC50/MIC (K. pneumoniae): 1.50
Selectivity Index (SI), HC50/MIC (P. aeruginosa): 1.50
Selectivity Index (SI), HC50/MIC (S. aureus): 3.00

CCCCCCCCCCCCCCCC(=O)N[C@@H](CCCNC(=N)N)C(=O)N[C@@H](CCCNC(=N)N)C(=O)N[C@@H](CO)C(N)=O [Peptide 6, C16-RRS-NH2] (Palmitoyl-Arg-Arg-Ser-NH2)
Selectivity Index (SI), HC50/MIC (A. baumannii): 2.37
Selectivity Index (SI), HC50/MIC (C. glabrata): 9.49
Selectivity Index (SI), HC50/MIC (E. faecium): 9.49
Selectivity Index (SI), HC50/MIC (K. aerogenes): 1.19
Selectivity Index (SI), HC50/MIC (K. pneumoniae): 2.37
Selectivity Index (SI), HC50/MIC (P. aeruginosa): 4.75
Selectivity Index (SI), HC50/MIC (S. aureus): 9.49

CCCCCCCCCCCCCCCCCC(=O)N[C@@H](CCCNC(=N)N)C(=O)N[C@@H](CCCNC(=N)N)C(=O)N[C@@H](CO)C(N)=O [Peptide 9, C18-RRS-NH2] (Stearoyl-Arg-Arg-Ser-NH2)
Selectivity Index (SI), HC50/MIC (A. baumannii): 2.95
Selectivity Index (SI), HC50/MIC (C. glabrata): 23.58
Selectivity Index (SI), HC50/MIC (E. faecium): 11.79
Selectivity Index (SI), HC50/MIC (K. aerogenes): 2.95
Selectivity Index (SI), HC50/MIC (K. pneumoniae): 5.89
Selectivity Index (SI), HC50/MIC (P. aeruginosa): 1.47
Selectivity Index (SI), HC50/MIC (S. aureus): 11.79

CCCCCCCCCCCCCC(=O)N[C@@H](CCCNC(=N)N)C(=O)N[C@@H](CCCNC(=N)N)C(=O)N[C@@H](CO)C(N)=O [Peptide 3, C14-RRS-NH2] (Myristoyl-Arg-Arg-Ser-NH2)
Selectivity Index (SI), HC50/MIC (A. baumannii): 3.55
Selectivity Index (SI), HC50/MIC (C. glabrata): 7.09
Selectivity Index (SI), HC50/MIC (E. faecium): 28.38
Selectivity Index (SI), HC50/MIC (K. aerogenes): 0.44
Selectivity Index (SI), HC50/MIC (K. pneumoniae): 0.44
Selectivity Index (SI), HC50/MIC (P. aeruginosa): 3.55
Selectivity Index (SI), HC50/MIC (S. aureus): 14.19
